From patent publication US7094581B2, “Hyaluronan synthases and methods of making and using same” (The Board of Regents of the University of Oklahoma, priority 1998, dated 2006)

Legend:
[1] = system: spHAS; assay: HA size range and prevalent size made by spHAS variants, 1% agarose gel; type: biochemical, Streptococcus pyogenes; conditions: HA made by spHAS variants in one hour at saturating substrate
[2] = system: seHAS; assay: HA size range and prevalent size made by seHAS variants, 1% agarose gel; type: biochemical, Streptococcus equisimilis; conditions: HA made by seHAS variants in one hour at saturating substrate

Molecule	2–4 MDa (3–6 Kb) [1]	4–6 MDa (6–9 Kb) [1]	<2 MDa (<3 Kb) [1]	>6 MDa (9–>48.5 Kb) [1]	Peak Size (MDa) [1]	2–4 MDa (3–6 Kb) [2]	4–6 MDa (6–9 Kb) [2]	<2 MDa (<3 Kb) [2]	>6 MDa (9–>48.5 Kb) [2]	Peak Size (MDa) [2]
Wildtype: wildtype Streptococcus pyogenes hyaluronan synthase (spHAS-His6), SEQ ID NO:4 (protein, His6 tag; Streptococcus pyogenes) MPIFKKTLIVLSFIFLISILIYLNMYLFGTSTVGIYGVILITYLVIKLGLSFLYEPFKGNPHDYKVAAVIPSYNEDAESLLETLKSVLAQTYPLSEIYIVDDGSSNTDAIQLIEEYVNREVDICRNVIVHRSLVNKGKRHAQAWAFERSDADVFLTVDSDTYIYPNALEELLKSFNDETVYAATGHLNARNRQTNLLTRLTDIRYDNAFGVERAAQSLTGNILVCSGPLSIYRREVIIPNLERYKNQTFLGLPVSIGDDRCLTNYAIDLGRTVYQSTARCDTDVPFQLKSYLKQQNRWNKSFFRESIISVKKILSNPIVALWTIFEVVMFMMLIVAIGNLLFNQAIQLDLIKLFAFLSIIFIVALCRNVHYMVKHPASFLLSPLYGILHLFVLQPLKLYSLCTIKNTEWGTRKKVTIFK	29 ± 8 percentage of total counts (IDV)	12 ± 2 percentage of total counts (IDV)	33 ± 5 percentage of total counts (IDV)	26 ± 8 percentage of total counts (IDV)	2–3 MDa	–	–	–	–	–
WT: wild-type Streptococcus equisimilis hyaluronan synthase (seHAS-His6), SEQ ID NO:2 (protein, listed as Streptococcus equisimilis, His6 tag) MRTLKNLITVVAFSIFWVLLIYVNVYLFGAKGSLSIYGFLLIAYLLVKMSLSFFYKPFKGRAGQYKVAAIIPSYNEDAESLLETLKSVQQQTYPLAEIYVVDDGSADETGIKRIEDYVRDTGDLSSNVIVHRSEKNQGKRHAQAWAFERSDADVFLTVDSDTYIYPDALEELLKTFNDPTVFAATGHLNVRNRQTNLLTRLTDIRYDNAFGVERAAQSVTGNILVCSGPLSVYRREVVVPNIDRYINQTFLGIPVSIGDDRCLTNYATDLGKTVYQSTAKCITDVPDKMSTYLKQQNRWNKSFFRESIISVKKIMNNPFVALWTILEVSMFMMLVYSVVDFFVGNVREFDWLRVLAFLVIIFIVALCRNIHYMLKHPLSFLLSPFYGVLHLFVLQPLKLYSLFTIRNADWGTRKKLL	–	–	–	–	–	25 ± 7 percentage of total counts (IDV)	14 ± 5 percentage of total counts (IDV)	42 ± 21 percentage of total counts (IDV)	19 ± 9 percentage of total counts (IDV)	1–2 MDa
